Measured values from several laboratories, pooled; numbers as filed in NIAID ChemDB.

All rows: growth or infection tests; organism: Aspergillus clavatus

Zones are inhibition diameters on agar. MIC50, MIC90 and the like: level of inhibition, or share of isolates inhibited. Blank or dashed fields: not listed here. Lines come from different laboratories, so protocols vary.

structure	dose	strain or isolate	read-out	method	result
Cc1ccc(-c2nc3ccccc3c(=O)n2-c2ccc(C(=O)NN3C(=O)/C(=C/c4ccccc4Cl)SC3c3ccc(F)cc3)cc2)cc1		MTCC 1323	MIC100		100 µg/mL
Cc1ccc(C2c3c(nc(=O)[nH]c3N)Oc3c2c(C)nn3-c2ccccc2)cc1		MTCC 1323	MIC		500 µg/mL
Cc1ccc(-c2nc3ccccc3c(=O)n2-c2ccc(C(=O)NN3C(=O)/C(=C/c4ccccc4)SC3c3ccc(F)cc3)cc2)cc1		MTCC 1323	MIC100		1000 µg/mL
CCN1CCN(c2nc(Nc3ccc(C#N)c(C(F)(F)F)c3)nc(Oc3ccnc4ccccc34)n2)CC1	100 µg/mL	MTCC 1323	zone	agar	<10 mm
Cc1ccc(-c2nc3ccccc3c(=O)n2-c2ccc(C(=O)NN3C(=O)CSC3c3ccc(F)cc3)cc2)cc1		MTCC 1323	MIC100		1000 µg/mL
Cc1nn(-c2ccccc2)c2c1C(c1ccc(F)cc1)c1c(nc(=S)[nH]c1N)O2		MTCC 1323	MIC		1000 µg/mL
COc1ccc(/C=C2\SC(c3ccc(F)cc3)N(NC(=O)c3ccc(-n4c(-c5ccc(C)cc5)nc5ccccc5c4=O)cc3)C2=O)c(O)c1		MTCC 1323	MIC100		500 µg/mL
N#Cc1ccc(Nc2nc(Oc3cccc4cccnc34)nc(N3CCN(c4cccc(Cl)c4Cl)CC3)n2)cc1C(F)(F)F	100 µg/disc	MTCC 1323	zone	agar diffusion / agar	25 mm
Cc1nn(-c2ccccc2)c2c1C(c1ccccc1)c1c(nc(=S)[nH]c1N)O2		MTCC 1323	MIC		>1000 µg/mL
CN1CCN(c2nc(Nc3ccc(C#N)c(C(F)(F)F)c3)nc(Oc3cccc4cccnc34)n2)CC1	100 µg/disc	MTCC 1323	zone	agar diffusion / agar	18 mm
Cc1nn(-c2ccccc2)c2c1C(c1ccc(O)cc1)c1c(nc(=S)[nH]c1N)O2		MTCC 1323	MIC		250 µg/mL
Cc1ccc(-c2nc3ccccc3c(=O)n2-c2ccc(C(=O)NN3C(=O)/C(=C/c4ccc(N(C)C)cc4)SC3c3ccc(F)cc3)cc2)cc1		MTCC 1323	MIC100		1000 µg/mL
CN1CCN(c2nc(Nc3ccc(C#N)c(C(F)(F)F)c3)nc(Oc3ccnc4ccccc34)n2)CC1	100 µg/mL		zone	agar	<10 mm
CCN1CCN(c2nc(Nc3ccc(C#N)c(C(F)(F)F)c3)nc(Oc3cccc4cccnc34)n2)CC1	100 µg/disc	MTCC 1323	zone	agar diffusion / agar	21 mm
N#Cc1ccc(Nc2nc(Oc3ccnc4ccccc34)nc(N3CCN(c4ccccn4)CC3)n2)cc1C(F)(F)F	100 µg/mL	MTCC 1323	zone	agar	<10 mm
CC(=O)N1CCN(c2nc(Nc3ccc(C#N)c(C(F)(F)F)c3)nc(Oc3cccc4cccnc34)n2)CC1	100 µg/disc	MTCC 1323	zone	agar diffusion / agar	27 mm

Repeating the final 2 entries:

N#Cc1ccc(Nc2nc(Oc3ccnc4ccccc34)nc(N3CCN(c4ccccn4)CC3)n2)cc1C(F)(F)F ; dose: 100 µg/mL ; strain or isolate: MTCC 1323 ; read-out: zone ; method: agar ; result: <10 mm
CC(=O)N1CCN(c2nc(Nc3ccc(C#N)c(C(F)(F)F)c3)nc(Oc3cccc4cccnc34)n2)CC1 ; dose: 100 µg/disc ; strain or isolate: MTCC 1323 ; read-out: zone ; method: agar diffusion / agar ; result: 27 mm